Where “and” joins values, the source holds several entries; their conditions need not be identical. Equal values may be shown once.
Key:
[1] = test system: Leishmania infantum (MHOM/BR/1974/PP75) in THP-1 macrophages; test: Anti-Leishmania infantum activity assay (infected THP-1 macrophages, red fluorescence); type: cell-based; details: CC50 (THP-1)/IC50 (L. infantum)
Method: Their half-maximum cytotoxic concentrations (CC50) and their selectivity indices (SI), obtained as the ratio of the cytotoxic concentration against the bioactive concentration are shown in Table 2. Theoretically, the higher the SI value, the greater the effectiveness for the target and the lower the toxicity of the compound, characterizing a potentially safe and selective drug.
Cells derived from the human monocytic strain THP-1 were cultured in complete Rowell Park Memorial Institute (RPMI)-1640 medium (supplemented with 10% fetal bovine serum, 100 U/mL penicillin, and 100 μg/mL streptomycin). Monocytes were differentiated into macrophages by the addition of 20 ng/mL phorbol myristate acetate (PMA). […] The IC50 values were determined by non-linear regression using a variable slope model (log[concentration] vs. growth inhibition) with the GraphPad Prism v8.2.0 (Boston, MA, USA) software. Controls with uninfected cells, untreated infected cells, infected cells treated with amphotericin B at 0.25 μM (positive control) or DMSO 1% were used. Quadruplicates were run in the same plate, and the experiments were repeated at least once.

[2] = test system: P. falciparum chloroquine-resistant and mefloquine-sensitive W2 clone; test: Anti-Plasmodium falciparum activity assay (SYBR, erythrocytic asexual stages); type: cell-based; details: CC50 (BGM)/IC50 (P. falciparum)
Method: In vitro assay with P. falciparum culture were performed as described previously. […] The activity was measured using the SYBR assay with the parasite suspension (0.5% parasitemia and 2% hematocrit) with minor modifications. The test compounds, in serial dilutions, were incubated in “U” bottom 96-wells plates. After 48 h at 37 °C, the culture supernatant was removed and replaced by 100 µL of lysis buffer solution [Tris (20 mM; pH 7.5), EDTA (5 mM), saponin (0.008%; wt/vol), and Triton X 100 (0.08%; vol/vol)] followed by addition of 0.2 µL/mL SYBR Safe (Sigma-Aldrich, Carlsbad, CA, USA). The plate content was transferred to a flat bottom plate and incubated in the dark for 30 min. The plate was read in a fluorometer (Synergy H4 Hibrid Reader, Biotek) with excitation at 485 nm and 535 nm of emission. In all tests, the compound activities were expressed by the 50% inhibitory concentration of the parasite growth (IC50) when compared to the drug-free controls and estimated using the curve-fitting software Origin 8.0 (OriginLab Corporation, Northampton, MA, USA).

Row | Structure (SMILES) | SI [1] | SI [2]
1 | C[C@@H]1[C@H](O)[C@@H](C)/C=C/C=C/C=C/C=C/C=C/C=C/C=C/[C@H](O[C@@H]2O[C@H](C)[C@@H](O)[C@H](N)[C@@H]2O)C[C@@H]2O[C@](O)(C[C@@H](O)C[C@@H](O)[C@H](O)CC[C@@H](O)C[C@@H](O)CC(=O)O[C@H]1C)C[C@H](O)[C@H]2C(=O)O [Amphotericin B, reference compound] | 1610 | –
2 | CC(=O)Nc1ccc(C2C(=O)N(c3ccc(Cl)cc3)CC(=O)N2c2ccccc2)cc1 (centres unmarked) [Compound 7] | > 40 and 42 | –
3 | O=C1C(c2ccc(O)cc2)N(c2ccccc2)C(=O)CN1c1ccc(Cl)cc1 (centres unmarked) [Compound 14] | > 50 and > 40 and 74 | –
4 | O=C1C(c2ccccc2F)N(c2ccc(Cl)cc2)C(=O)CN1c1ccc(Cl)cc1 (centres unmarked) [Compound 17] | – | > 10 and 15
5 | O=C1C(c2ccccc2F)N(c2ccc(Br)cc2)C(=O)CN1c1ccc(Cl)cc1 (centres unmarked) [Compound 19] | – | > 10 and 20

From PMC10893061, “Novel 2,5-Diketopiperazines with In Vitro Activities against Protozoan Parasites of Tropical Diseases” (Pharmaceuticals, 2024)
